The results in this text go back to PMC7959488, “Identify potent SARS-CoV-2 main protease inhibitors via accelerated free energy perturbation-based virtual screening of existing drugs” (Proceedings of the National Academy of Sciences of the …, 2020).

In this assay the target is SARS-CoV-2 M^pro (Severe acute respiratory syndrome coronavirus 2, UniProt P0DTD1).

Under “unsigned error |ΔGMM-GBSA − ΔGexp|”, `OCCN(CCO)c1nc(N2CCCCC2)c2nc(N(CCO)CCO)nc(N3CCCCC3)c2n1` [DIP, dipyridamole] showed a UEMM-GBSA of 24.4 kcal/mol. Also, under “unsigned error |ΔGMM-PBSA − ΔGexp|”, the UEMM-PBSA is given as 13.6 kcal/mol.
